A mixed list of measured activities; the numbers were collected in NIAID ChemDB.

All rows: growth or infection tests; species: Mycobacterium tuberculosis

MIC bound comes from a single tested concentration. A number after MIC or MFC names an inhibition level or a share of isolates. Blank or dashed fields: not listed here. Rows are shuffled and stem from different studies. ECn: concentration that inhibits the pathogen or its effect by n%. Percent inhibition refers to the dose given; in toxicity tests it is the harm to the cells. a–b is a range or a potency band.

smiles | read-out | tested at | method | strain or isolate | mutations | result
O=[N+]([O-])c1cccc(CSc2ncn[nH]2)c1 | MIC | - | - | My 331/88 | - | 1000 µM
CC(C)(C)c1ccc(N2CC3CN(Cc4ccc([N+](=O)[O-])o4)CC3C2)cc1 | MIC90 | - | resazurin | H37Rv | - | 0.062 µg/mL
CC(C)C[C@@H]1NC(=O)[C@H](Cc2c[nH]c3ccccc23)NC(=O)[C@@H](CCCN=C(N)N)NC(=O)[C@H](CC(N)=O)NC(=O)[C@H](C(C)C)NC(=O)[C@@H](CC(C)C)NC1=O | EC50 | - | turbidity | HN353 | - | 0.59 µM
CC(=O)C[C@@H]1C[C@H]2[C@H]([C@@H]3c4[nH]c5ccccc5c4CCN13)[C@H](O)C13CC/C=C\CCCCN1CC21C2CCCCCCCN2[C@H]13 | MIC | - | - | - | - | 1.5 µg/mL
O=c1c2cnc(-c3ccccc3)nc2oc2ccc3ccccc3c12 | MIC bound | - | BACTEC | H37Rv | - | >12.5 µg/mL
Cn1c(SCc2ccccc2)nnc1-c1ccc(N)cc1 | inhibition | 6.25 µg/mL | - | H37Rv | - | <50%
CO[C@H]1/C=C/O[C@@]2(C)Oc3c(C)c(O)c4c(O)c(c5c(c4c3C2=O)NC2(CCN(CC(C)C)CC2)N=5)=NC(=O)/C(C)=C\C=C\[C@H](C)[C@H](O)[C@@H](C)[C@@H](O)[C@@H](C)[C@H](OC(C)=O)[C@@H]1C | Mean MIC | - | - | H37Ra | - | ≤0.006 µg/mL
CO[C@H]1/C=C/O[C@@]2(C)Oc3c(C)c(O)c4c(O)c(c(/C=N/N5CCN(C)CC5)c(O)c4c3C2=O)NC(=O)/C(C)=C\C=C\[C@H](C)[C@H](O)[C@@H](C)[C@@H](O)[C@@H](C)[C@H](OC(C)=O)[C@@H]1C | EC50 | - | turbidity | H37Rv | - | 0.4 µM
O=[N+]([O-])c1cccc(F)c1CSc1ncn[nH]1 | MIC | - | - | My 331/88 | - | >1000 µM
CC[C@@H](CO)NCCN[C@@H](CC)CO | MIC | - | broth dilution / resazurin | MDR7 | - | 1 µg/mL
CO[C@H]1/C=C/O[C@@]2(C)Oc3c(C)c(O)c4c(O)c(c(/C=N/N5CCN(C)CC5)c(O)c4c3C2=O)NC(=O)/C(C)=C\C=C\[C@H](C)[C@H](O)[C@@H](C)[C@@H](O)[C@@H](C)[C@H](OC(C)=O)[C@@H]1C | MIC | - | - | ATCC 27294 | - | 0.036 µM
Cn1cnnc1SCc1ccc([N+](=O)[O-])cc1[N+](=O)[O-] | MIC | - | - | My 331/88 | - | >1000 µM
N=c1scc(-c2ccccc2)n1/N=C/c1cccnc1 | MIC bound | - | BACTEC | H37Rv | - | ≤6.25 µg/mL
CCCCCN1C(=O)C(=O)c2cccc(-c3ccccc3)c21 | MIC | - | - | H37Ra | - | ≤20 µg/mL
Nc1ccc(-c2nnc(SCc3ccccc3)n2-c2ccccc2)cc1 | EC50 | - | - | H37Rv | - | >6.25 µg/mL
COc1ccc(-c2nc(N3CCN(c4ccccc4)CC3)[nH]c(=O)c2C#N)cc1 | MIC | - | - | H37Ra | - | >50 µg/mL
Cc1ccc(-n2c(SCc3ccc(Cl)cc3Cl)nnc2-c2ccc(N=Cc3ccc(O)cc3)cc2)cc1 | EC50 | - | - | H37Rv | - | <6.25 µg/mL
N#Cc1c(-c2ccc(F)cc2)nc(NC2CCCCCC2)[nH]c1=O | MIC | - | - | H37Ra | - | >50 µg/mL
O=[N+]([O-])c1ccc(C=Nc2ccc(-c3nnc(SCc4ccc(Cl)cc4Cl)n3-c3ccccc3)cc2)o1 | inhibition | 6.25 µg/mL | - | H37Rv | - | 50–59%
CN(C)C/C=C(/c1ccc(-c2ccc(Br)cc2)cc1)c1cccs1 | MIC | - | - | ATCC 25177 | - | 20.2 µM
CCn1c(=O)nc2n(-c3ccccc3)c3ccccc3nc-2c1=O | inhibition | 12.5 µg/mL | BACTEC | H37Rv | - | 0%
FC(F)(F)c1ccc(CSc2ncn[nH]2)cc1 | MIC | - | - | My 331/88 | - | 500 µM
C=C(CC[C@@H](C)[C@H]1CC[C@@H]2[C@@H]3[C@@H](CC[C@@]21C)[C@@]1(CO)CC[C@H](O)CC1=C[C@@H]3O)C(C)C | MIC | - | - | - | - | 12.5 µg/mL
Cn1cnnc1SCc1ccc(C#N)cc1 | MIC | - | - | My 331/88 | - | >1000 µM
CC1(C)CNC(=O)C(C)(C2(C)NC(C)(C)CNC2=O)N1 | inhibition | 12.5 µg/mL | BACTEC | H37Rv | - | 20%
CC(C)C[C@@H]1NC(=O)[C@H](Cc2c[nH]c3ccccc23)NC(=O)[C@H](CCCCN)NC(=O)[C@H](CC(N)=O)NC(=O)[C@H](C(C)C)NC(=O)[C@@H](CC(C)C)NC1=O | EC50 | - | turbidity | HN878 | - | >30 µM
CSC(=S)NN=C(c1ccccn1)c1ccccn1 | MIC | - | BACTEC | H37Rv | - | 128 µg/mL
O=C(O)C(=O)O.OC(CNCCc1ccccc1)CN1c2ccccc2Sc2ccccc21 | MIC | - | resazurin | XDR-83 | - | 32 µg/mL
CN1CCN(c2nc(-c3ccc(N(C)C)cc3)c(C#N)c(=O)[nH]2)CC1 | MIC | - | - | H37Ra | - | >50 µg/mL
CC(=O)O[C@H]1C[C@@]2(C)[C@@H](C[C@@H](O)[C@H]3[C@@]4(C)CC[C@@H](O)[C@@H](C)[C@@H]4CC[C@@]32C)/C1=C(\CCC=C(C)C)C(=O)O | Median MIC | - | - | H37Ra | - | 3 µg/mL
Cc1ccc(-c2nc(Nc3ccc(F)cc3)[nH]c(=O)c2C#N)cc1 | MIC | - | - | H37Ra | - | >50 µg/mL
S=C(Nc1ccc(Cl)c(Cl)c1)SCc1ccc2c(c1)OCO2 | inhibition | 128 µg/mL | BACTEC | H37Rv | - | 100%
NC(=S)c1ccc(CSc2ncn[nH]2)cc1 | MIC | - | - | My 331/88 | - | 125 µM
CC(C)(C)c1cccc(N2CC3CN(Cc4ccc([N+](=O)[O-])o4)CC3C2)c1 | MIC90 | - | resazurin | Clinical Isolate 16995 | INH RFP resistant | 0.07 µg/mL
C=CC(C)(O)CCCC=C(C)C | MIC | - | absorbance | H37Ra | - | >256 µg/mL
COC(=O)CCC(=O)CC(=O)C1=NS(=O)(=O)c2nc(S(N)(=O)=O)c(Cl)cc2N1 | inhibition | 6.25 µg/mL | resazurin | H37Rv | - | -5%
S=c1nc[nH][nH]1 | MIC | - | - | My 331/88 | - | 1000 µM
CCOc1ccccc1N(CCN(C)C)C(=O)C(c1ccccc1)c1ccccc1.Cl | MIC bound | - | BACTEC | H37Rv | - | ≤128 µg/mL
NNC(=O)c1ccncc1 | MIC | - | - | PR503 | - | 1.25 µg/mL
O=C1C(=O)N(CCCCBr)c2ccc(C3CCCCC3)cc21 | MIC | - | - | H37Ra | - | ≤20 µg/mL
COc1ccc(-c2nc(NCc3ccccc3)[nH]c(=O)c2C#N)cc1 | MIC | - | - | H37Ra | - | >50 µg/mL
Cc1nn(C(=O)c2ccncc2)c2c1C(c1ccccc1[N+](=O)[O-])SC(N)=N2 | MIC bound | - | resazurin | H37Rv | - | <6.25 µg/mL
O=[N+]([O-])c1ccc(CSc2ncn[nH]2)cc1 | MIC | - | - | My 331/88 | - | 1000 µM
C[C@@H]1CN(c2c(F)c(N)c3c(=O)c(C(=O)O)cn(C4CC4)c3c2F)C[C@H](C)N1 | Median MIC | - | - | H37Rv | - | 0.12 µg/mL
NNC(=O)c1ccncc1 | MIC | - | resazurin | DRM167 32x2 | DG167-resistant | 0.19 µM
Fc1cccc(CSc2ncn[nH]2)c1 | MIC | - | - | My 331/88 | - | 500 µM
COc1ccc(-c2nc(NCCO)[nH]c(=O)c2C#N)cc1 | MIC | - | - | H37Ra | - | >50 µg/mL
CCCCC(=O)N/N=C/c1ccc([N+](=O)[O-])s1 | inhibition | 12.5 µg/mL | BACTEC | H37Rv | - | 96%
CC1COc2c(N3CCN(C)CC3)c(F)cc3c(=O)c(C(=O)O)cn1c23 | Mean MIC | - | - | H37Ra | - | 0.75 µg/mL
CC(C)C[C@@H]1NC(=O)[C@H](Cc2c[nH]c3ccccc23)NC(=O)[C@@H](CCCN)NC(=O)[C@H](CC(N)=O)NC(=O)[C@H](C(C)C)NC(=O)[C@@H](CC(C)C)NC1=O | MIC90 | - | turbidity | H37Ra | - | 1.1 µM
CC(C)=CCC[C@H](C)[C@H]1CC[C@H](C)c2c1cc(C)c1ncoc21 | MIC | - | - | - | - | 12.5 µg/mL
Nc1ccc(C2SCC(=O)N2NS(=O)(=O)c2cccc(C(=O)O)c2)cc1 | inhibition | 12.5 µg/mL | BACTEC | H37Rv | - | 1%
CCCCCCCCN1C(=O)C(=O)c2cccc(-c3ccccc3)c21 | MIC | - | - | H37Rv | - | ≤20 µg/mL
CN1CCN(c2nc(-c3ccc(F)cc3)c(C#N)c(=O)[nH]2)CC1 | MIC | - | - | H37Ra | - | >50 µg/mL
Cc1ccc(NS(=O)(=O)c2cccc([N+](=O)[O-])c2)cc1Cl | inhibition | 12.5 µg/mL | BACTEC | H37Rv | - | 5%
CO[C@H]1/C=C/O[C@@]2(C)Oc3c(C)c(O)c4c(O)c(c(/C=N/N5CCN(C)CC5)c(O)c4c3C2=O)NC(=O)/C(C)=C\C=C\[C@H](C)[C@H](O)[C@@H](C)[C@@H](O)[C@@H](C)[C@H](OC(C)=O)[C@@H]1C | MIC90 | - | resazurin | H37Rv | - | 0.078 µg/mL
N/C(=N\OC(=O)Nc1ccc(CSc2ccc(Cl)cc2)o1)c1ccccn1 | MIC | - | BACTEC | H37Rv | - | ≥12.5 µg/mL
CCCCCCCCCCCCN1C(=O)C(=O)c2cccc(-c3ccccc3)c21 | MIC | - | - | H37Rv | - | ≤20 µg/mL
CC(C)=CCC[C@H](C)[C@H]1CC[C@H](C)c2ccccc21 | MIC | - | - | - | - | 12.5 µg/mL
CC(C)C[C@@H]1NC(=O)[C@H](Cc2c[nH]c3ccccc23)NC(=O)[C@@H](CCCCN)NC(=O)[C@H](CC(N)=O)NC(=O)[C@H](C(C)C)NC(=O)[C@@H](CC(C)C)NC1=O | MIC90 | - | turbidity | HN353 | - | 0.99 µM
C=CCn1c(SCc2ccc(Cl)cc2Cl)nnc1-c1ccc(N)cc1 | EC50 | - | - | H37Rv | - | >6.25 µg/mL
Cn1cc(N)cc1C(=O)Nc1cc(C(=O)Nc2cc(S(=O)(=O)O)c3cc(S(=O)(=O)O)cc(S(=O)(=O)O)c3c2)n(C)c1 | MIC bound | - | BACTEC | H37Rv | - | >12.5 µg/mL
COc1ccc(N2CCC3(CCN(Cc4ccc([N+](=O)[O-])o4)CC3)CC2)cc1 | MIC90 | - | resazurin | H37Rv | - | 0.205 µg/mL
Cn1nc2ccc3nccc(NCCNCCO)c3c2n1 | inhibition | 6.25 µg/mL | resazurin | H37Rv | - | -28%
N#Cc1c(Nc2ccccc2)[n+]([O-])c2ccc(Cl)cc2[n+]1[O-] | inhibition | 12.5 µg/mL | - | H37Rv | - | 99%
CCCCC/C=C/C/C=C/CCCCCCCC1=NC(CC)(CO)CO1 | MIC bound | - | BACTEC | H37Rv | - | >12.5 µg/mL
Cn1c(SCc2ccc(Cl)cc2Cl)nnc1-c1ccc(N=Cc2c(Cl)cccc2Cl)cc1 | EC50 | - | - | H37Rv | - | >6.25 µg/mL
C=C(C)CC[C@H]1CN(c2ccn(N3CCOCC3)c2)C(=O)O1 | MIC90 | - | - | ATCC 27294 | - | >100 µM
NCCCN1c2ccccc2Sc2ccccc21 | MIC | - | resazurin | XDR-164 | - | 32 µg/mL
CN(C)c1ccc(O)c2c1C[C@H]1C[C@H]3[C@H](N(C)C)C(=O)C(C(N)=O)=C(O)[C@@]3(O)C(=O)C1=C2O | Mean MIC | - | - | H37Ra | - | 0.88 µg/mL
COc1cc(-c2nn3c(=O)n(-c4ccc(Cl)cc4)c(=O)nc3s2)cc(OC)c1OC | inhibition | 6.25 µg/mL | resazurin | H37Rv | - | -35%
CC[C@H]1OC(=O)[C@H](C)[C@@H](O[C@H]2C[C@@](C)(OC)[C@@H](O)[C@H](C)O2)[C@H](C)[C@@H](O[C@@H]2O[C@H](C)C[C@H](N(C)C)[C@H]2O)[C@](C)(OC)C[C@@H](C)C(=O)[C@H](C)[C@@H](O)[C@]1(C)O | Mean MIC | - | - | H37Ra | - | 1.5 µg/mL
Cc1cc(-n2nnc3ccccc3c2=O)on1 | MIC bound | - | BACTEC | H37Rv | - | >12.5 µg/mL
NC[C@@H]1O[C@H](O[C@H]2[C@@H](O)[C@H](O[C@@H]3[C@@H](O)[C@H](N)C[C@H](N)[C@H]3O[C@H]3O[C@H](CO)[C@@H](O)[C@H](O)[C@H]3N)O[C@@H]2CO)[C@H](N)[C@@H](O)[C@@H]1O | Median MIC | - | - | H37Rv | - | 3 µg/mL
Nc1cc(O)c(O)c2c1C(=O)c1c(O)c(O)cc(N)c1C2=O | inhibition | 12.5 µg/mL | BACTEC | H37Rv | - | 3%
CO[C@H]1/C=C/O[C@@]2(C)Oc3c(C)c(O)c4c(O)c(c(/C=N/N5CCN(C6CCCC6)CC5)c(O)c4c3C2=O)NC(=O)/C(C)=C\C=C\[C@H](C)[C@H](O)[C@@H](C)[C@@H](O)[C@@H](C)[C@H](OC(C)=O)[C@@H]1C | Mean MIC | - | - | H37Ra | - | ≤0.006 µg/mL
CNC1=CC(=O)c2c(c3cc(OC(C)=O)ccc3n2C)C1=O | MIC bound | - | resazurin | H37Rv | - | >6.25 µg/mL
C=CCn1c(SCc2ccc(Cl)cc2Cl)nnc1-c1ccc(N=Cc2ccc(F)cc2)cc1 | inhibition | 6.25 µg/mL | - | H37Rv | - | <50%
CCCCCCCCNc1nc(-c2ccc(OC)cc2)c(C#N)c(=O)[nH]1 | MIC | - | - | H37Ra | - | 25–50 µg/mL